Measured values: patent publication US20120207760A1, “Compositions and Methods for the Therapy and Diagnosis of Influenza” (THERACLONE SCIENCES, published 2012)

B1: TCN-551 (5243_D01) (antibody, V domains shown)
VH: EVQLVQSGSEVKKPGESLKISCKGSGYSFSNYWIGWVRHMPGKGLEWMGIIYPGDSDTRYSPSFQGQVTMSADKSSSTVYLQWSSLKASDTAIYYCARRGGHSFGYGSGGDTHSEFDSWGQGTLVTVSS
VL: QSVLTQSPSVSAAPGQKVTISCSGSDSNIGDYFVCWYQHLPGKPPQLLIYENNKRPSGIPDRFSGSKSGTSATLGITGIQTGDEADYYCATWDGSLSAWVFGGGTKLTVL
B2: TCN-552 (5249_I23) (antibody, V domains shown)
VH: QVQVVQSGAEVKKPGSSVRVSCQASGGTFMNYAIIWVRRAPGQGLEWMGGIIPVFPTPNYAQMFQGRVTISTDESRSTSFLELTNLRYEDTAVYYCARRIYHGGNSGFDFWGQGTLVTVSS
VL: EIVLTQSPATLSLSPGERATLSCRASQSVGNYLAWYQQKPGQAPRLLIYDSSNRAPGIPARFSGSGSGTDFTLTISSLAPEDFAVYYCQQRSKWPPMYSFGHGTKLEIK
B3: TCN-553 (5261_C18) (antibody, V domains shown)
VH: QVQVVQSGTEVKKPGSSVKVSCQTSGGRFMSYAITWVRQAPGQGLEWMGGIVPVFGTANYAQKFQGRVTITTDDSTRTAYMELSSLRSEDTAVYYCGFRYGSGYGFDSWGQGTLVTVSS
VL: EIVLTQSPGTLSLSPGERATLSCRASQSVSSSYLAWYQKKPGQAPRLLIYGASTRATGIPDRFTGSGSGTDFTLSISRLEPEDFAVYYCQHFGTSVFTFGGGTKVEIK
B4: TCN-556 (5089_K12) (antibody, V domains shown)
VH: QVQLVQSGAEVKKPGASVKVSCKASGYTFIGYDMHWVRQAPGQGLEWMGWINAKRGGTNYAQKFQGRVTMTRDTSISTAYMELNSLRSDDTAVYYCARGVGSRTTIFGVLNPEFDYWGQGTLVTVSS
VL: QSALTQPPSASGSPGQSVTISCTGSSSDVGGYDYVSWYQQHPGKAPKLLIYEVTKRPSGVPDRFSGSKSGNTASLTVSGLQAEDEADYYCSSYAGNYNHVFGPGTKVTVL
B5: TCN-557 (5081_A04) (antibody, V domains shown)
VH: QVQLVQSGAEVKKPGASVKVSCKASGHTFTGYYIHWVRQAPGQGLEWMGWINPDSGATSSAQNFQGRVTMTGDTSSSTAYMELSRLSFDDTAVYYCARVLFTSPFDFWGEGTLVTVSS
VL: QAVVTQEPSLAVSPGGTVTLTCGSSTGAVTRGHYPYWFQQKPGQAPRALIYDSAGNRHSWTPARFSGSLLGGKAALTLSGAQPEDEAEYYCLLSYSGVWVFGGGTKLTVL
B6: TCN-560 (5084_P10) (antibody, V domains shown)
VH: EVQLVESGGGLVQPGGSLRLSCAASGFIFRNYWMSWVRQAPGKGLEWVANIKQDGREKYYVDSLRGRVNISRDNAENSLYLHMNSLRVEDTAVYFCARARMVVVTGDGFDVWGHGTMVTVSS
VL: DIQMTQSPSSLSASVGDRVTITCRASQNIKRYFNWYQQKPGKAPKLLIYAASNLENGVPSRFSGSGSGTDFTLTISSLQPEDFATYYCQQSFSKSWTFGQGTNVDIK

Target: Hemagglutinin of influenza A/Wisconsin/67/05 (H3N2), on inactivated whole virions (Influenza A virus A/Wisconsin/67/2005 …)
Assay: ELISA, B cell culture supernatant on inactivated whole virions

Binder | OD450 [OD450]
B1 | 0.07
B2 | 0.06
B3 | 0.07
B4 | 0.06
B5 | 0.07
B6 | 0.07
